Results taken from publication PMC8033486 (Frontiers in Pharmacology, 2021).
Read-outs that look alike come from different tables or passages of the source.

Tests used:
[1] = test system: Vero E6 cells; details: interferons; Vero E6, no virus, 3 days
[2] = test system: SARS-CoV-2; details: for IC50 (Mean +/- SD): interferons, Vero E6, cytopathic effect 3 days after infection

Interferon-2α
CC50 [1]: > 100 × 10^2 IU/mL
Inhibition of SARS-CoV-2-induced cytopathic effect, result in words ([2]; Vero E6): displayed antiviral activity
IC50 (Mean +/- SD) [2]: 8.1+/−0.7 × 10^2 IU/mL
IC50 (Mean +/- SD) ([2]; listed as Interferon 2 alpha): 8.1+/-0.7 × 10^2 IU/mL
